Assay results as given in US11814416B2, “Polypeptide capable of passing through blood-brain barrier” (SHENZHEN RUIJIAN BIOSCIENCE TECHNOLOGY LIMITED COMPANY, dated 2023).

Target: Rat CaV2.2 channel (α1B splice variant e37a, auxiliary subunits α2δ1 and β3) (rat, UniProt Q02294)
Assay: cell-based or functional assay

Row | Binder | reduction of peak Ca2+ current (ICa) at 1 µM, whole-cell voltage clamp [%]
1 | CKGKGAKCSRLMYDCCTGSCRSGKCYGRKKRRQRRR [MVIIA-a] | 89.5
2 | CKGKGAKCSRLMYDCCTGSCRSGKCGGGYGRKKRRQRRR [MVIIA-d] | 84.3
3 | CKGKGAKCSRLMYDCCTGSCRSGKC [MVIIA (ziconotide)] | 98.2
4 | CKGKGAKCSRLMYDCCTGSCRSGKCGGYGRKKRRQRRR [MVIIA-c] | 98.8
5 | CKGKGAKCSRLMYDCCTGSCRSGKCGYGRKKRRQRRR [MVIIA-b] | 91.7
